This is a selection; strong and weak results do not stand in their true shares. Calls of active or inactive are those of the source.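 The calls were made as follows: active = growth inhibition above about 50% at one test dose (limit read from the data); inactive = the rest.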
Experiment: antibacterial activity against E. coli BW25113 – strain BW25113, expanded library, OD600, primary screen (AID 710);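 also: growth measured after 20 h incubation at 37 °C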
Conditions: OD600 absorbance, at 100 µM, active compounds read high
In the case of `COc1ccccc1OP(C)(=O)Nc1ccc(C)c(C)c1` (configuration not stated), the growth inhibition was inactive: -5%.
In the case of `Cc1nc2ccc3ccccc3c2o1.O=[N+]([O-])c1cc([N+](=O)[O-])c(O)c([N+](=O)[O-])c1`, the growth inhibition was inactive: 8%.
In the case of `CN(C)CCOC(=O)C(O)(c1ccccc1)C1CCCC1` (configuration not stated), the growth inhibition was inactive: -2%.
With `COc1ccc(OP(C)(=O)Nc2ccccn2)cc1` (configuration not stated) the growth inhibition was inactive: 1%.
For `CCc1ccc(OP(C)(=O)O)cc1`, the growth inhibition was inactive: -3%.
With `CP(=O)(Nc1ccccn1)Oc1ccccc1` (configuration not stated) the growth inhibition was inactive: 6%.
With `COc1ccccc1OP(C)(=O)Nc1ccc(C)cc1C` (configuration not stated) the growth inhibition was inactive: -3%.
For `Cc1c(NP(C)(=O)Oc2ccc(C(C)C)cc2)c(=O)n(-c2ccccc2)n1C` (configuration not stated), the growth inhibition was inactive: 2%.
With `CP(=O)(Oc1ccccc1)N1CCOC1=O` (configuration not stated) the growth inhibition was inactive: 5%.
With `CCN(CC)CC(O)COC(=O)C(O)(c1ccccc1)C1CCCCC1` (configuration not stated) the growth inhibition was inactive: 7%.
In the case of `CP(=O)(Nc1ccc(Cl)cc1)Oc1ccc(F)cc1` (configuration not stated), the growth inhibition was inactive: 16%.
In the case of `CC(C)(C)c1ccc(OP(C)(=O)O)cc1`, the growth inhibition was inactive: 2%.
In the case of `CP(=O)(OC12CC3CC(CC(C3)C1)C2)OC12CC3CC(CC(C3)C1)C2`, the growth inhibition was inactive: -11%.
For `CN(C)CCOC(=O)C(O)(c1ccccc1)C1CCCCC1` (configuration not stated), the growth inhibition was inactive: 4%.
With `COc1ccc(OP(C)(=O)Nc2cccc(Br)c2)cc1` (configuration not stated) the growth inhibition was inactive: 2%.
With `CCOP(C)(=S)SCC(=O)NC(C)(CC)C(=O)O` (configuration not stated) the growth inhibition was inactive: -6%.
With `Cc1ccccc1NP(C)(=O)Nc1ccccc1C` the growth inhibition was inactive: 9%.
In the case of `CP(=O)(Nc1ccc2c(c1)OCCO2)Oc1ccccc1` (configuration not stated), the growth inhibition was inactive: 5%.
For `CP(=O)(Nc1ccccc1F)Oc1ccccc1` (configuration not stated), the growth inhibition was inactive: 2%.
For `CP(=O)(Nc1ccccc1)Oc1ccc(F)cc1` (configuration not stated), the growth inhibition was inactive: 2%.
For `Cc1cc(C)cc(OP(C)(=O)Nc2ccc(C)cc2C)c1` (configuration not stated), the growth inhibition was inactive: 4%.
In the case of `Cc1cc(C)cc(OP(C)(=O)Nc2ccccn2)c1` (configuration not stated), the growth inhibition was inactive: -3%.
With `Cc1ccc(C)c(NP(C)(=O)Oc2ccccc2)c1` (configuration not stated) the growth inhibition was inactive: 7%.
With `Cc1nc2ccc3ccccc3c2s1.O=[N+]([O-])c1cc([N+](=O)[O-])c(O)c([N+](=O)[O-])c1` the growth inhibition was inactive: 10%.
For `COc1ccccc1OP(C)(=O)Nc1c(C)cccc1C` (configuration not stated), the growth inhibition was inactive: 3%.
With `CP(=S)(Nn1cnnc1)Oc1ccccc1` (configuration not stated) the growth inhibition was inactive: 3%.
In the case of `CP(=O)(NC(=O)Nc1ccccc1)Oc1ccccc1` (configuration not stated), the growth inhibition was inactive: 1%.
With `CP(=O)(Nc1ccccn1)Oc1ccc(Cl)cc1` (configuration not stated) the growth inhibition was inactive: 3%.
For `CCOP(C)(=S)SCC(=O)NC(C)C(=O)O` (configuration not stated), the growth inhibition was inactive: -2%.
With `COc1ccc(OP(C)(=O)Nc2cccc(F)c2)cc1` (configuration not stated) the growth inhibition was inactive: 3%.
With `COc1ccccc1OP(C)(=O)Nc1ccc(C)cc1` (configuration not stated) the growth inhibition was inactive: 1%.
For `Cc1ccc(NP(C)(=O)Oc2ccccc2)c(C)c1` (configuration not stated), the growth inhibition was inactive: 1%.
